Tested on: HeLa cells
Experiment: Cytotoxicity against mammalian cells (MTS assay)
Format: cell-based
Details: ratio of HeLa CC50 to S. aureus MIC
Experimental: The cytotoxicity concentration of antibacterial compounds that produces half maximal decrease in viability (CC50) against mammalian cells (HeLa, ATCC CCL-2.2) was determined as described. The effect of compounds on HeLa cell viability was assessed in triplicate by measuring the mitochondrial activity using MTS assays according to the manufacturer’s instructions (Cell Titer 96 proliferation assay, Promega). The cells were incubated for 72 hours in RPMI1640 medium containing the compounds at final concentrations ranging from 64 to 0.125 μg/ml. CC50 was determined using a standard curve of serially diluted untreated cells in each experiment.

Cc1ccc(-c2cc(/C=C/c3ccc(N(C)C)cc3)[o+]c(-c3ccc(C)cc3)c2)cc1.F[B-](F)(F)F [6jc51-1]
CC50%/MIC (based on S. aureus): <.78125

Cc1ccc(-c2cc(/C=C/c3ccc(N(C)C)cc3)[o+]c(-c3ccc(C)c(C)c3)c2)cc1C.F[B-](F)(F)F [6jc-59-1]
CC50%/MIC (based on S. aureus): 0.39

Cc1ccc(-c2cc(/C=C/c3cn(C)c4ccccc34)[o+]c(-c3ccc(C)c(C)c3)c2)cc1C.F[B-](F)(F)F [6jc66-4]
CC50%/MIC (based on S. aureus): 0.46

CCc1ccc(-c2cc(/C=C/c3c[nH]c4ccccc34)[o+]c(-c3ccc(CC)cc3)c2)cc1.F[B-](F)(F)F [6jc64-3]
CC50%/MIC (based on S. aureus): 0.581

CN(C)c1ccc(/C=C/c2cc(-c3ccccc3)cc(-c3ccccc3)[o+]2)cc1.F[B-](F)(F)F [6jc39]
CC50%/MIC (based on S. aureus): 0.655

Cc1ccc(-c2cc(/C=C/c3c[nH]c4ccccc34)[o+]c(-c3ccc(C)cc3)c2)cc1.F[B-](F)(F)F [6jc-53-2]
CC50%/MIC (based on S. aureus): 0.56

CCc1ccc(-c2cc(/C=C/c3cn(C)c4ccccc34)[o+]c(-c3ccc(CC)cc3)c2)cc1.F[B-](F)(F)F [6jc66-2]
CC50%/MIC (based on S. aureus): 0.355

Cc1ccc(-c2cc(/C=C/c3cc4c5c(c3)CCCN5CCC4)[o+]c(-c3ccc(C)cc3)c2)cc1.F[B-](F)(F)F [6jc65-1]
CC50%/MIC (based on S. aureus): 0.276

Cc1ccc(-c2cc(/C=C/c3c[nH]c4ccccc34)[o+]c(-c3ccc(C)c(C)c3)c2)cc1C.F[B-](F)(F)F [6jc-59-3]
CC50%/MIC (based on S. aureus): 0.3375

C(=C\c1c[nH]c2ccccc12)/c1cc(-c2ccccc2)cc(-c2ccccc2)[o+]1.F[B-](F)(F)F [Jc-49-1]
CC50%/MIC (based on S. aureus): 0.275

CN(C)c1ccc(/C=C/C=C/c2cc(-c3ccc(Br)cc3)cc(-c3ccc(Br)cc3)[o+]2)cc1.F[B-](F)(F)F [6jc48-2]
CC50%/MIC (based on S. aureus): <0.945

Clc1ccc(-c2cc(/C=C/c3cc4c5c(c3)CCCN5CCC4)[o+]c(-c3ccc(Cl)cc3)c2)cc1.F[B-](F)(F)F [6jc-69-4]
CC50%/MIC (based on S. aureus): 0.38

CN(C)c1ccc(/C=C/c2cc(-c3ccc(Cl)cc3)cc(-c3ccc(Cl)cc3)[o+]2)cc1.F[B-](F)(F)F [6jc41-1]
CC50%/MIC (based on S. aureus): >2

C(=C\c1cc(-c2ccccc2)cc(-c2ccccc2)[o+]1)/c1cc2c3c(c1)CCCN3CCC2.F[B-](F)(F)F [6jc-58]
CC50%/MIC (based on S. aureus): 0.56

CCc1ccc(-c2cc(/C=C/C=C/c3ccc(N(C)C)cc3)[o+]c(-c3ccc(CC)cc3)c2)cc1.F[B-](F)(F)F [6jc64-2]
CC50%/MIC (based on S. aureus): 0.097

Cc1cc(/C=C/c2ccc(N(C)C)cc2)cc(C)[o+]1.F[B-](F)(F)F [6jc37]
CC50%/MIC (based on S. aureus): 1.185

CN1/C(=C/C=C/c2cc(-c3ccccc3)cc(-c3ccccc3)[o+]2)C(C)(C)c2ccccc21 [BAS-00127538, (1-Methyl-2,4-diphenyl-6-((1E,3E)-3-(1,3,3-trimethylindolin-2-ylidene)prop-1-en-1-yl)pyryl-1-ium) tetrafluoroborate, reference compound]
CC50%/MIC (based on S. aureus): 1.12

CN(C)c1ccc(/C=C/c2cc(-c3ccc(C(C)(C)C)cc3)cc(-c3ccc(C(C)(C)C)cc3)[o+]2)cc1.F[B-](F)(F)F [6jc-60-1]
CC50%/MIC (based on S. aureus): 0.097

CN(C)c1ccc(/C=C/C=C/c2cc(-c3ccccc3)cc(-c3ccccc3)[o+]2)cc1.F[B-](F)(F)F [6jc43-1]
CC50%/MIC (based on S. aureus): 0.2325

Cc1ccc(-c2cc(/C=C/C=C/c3ccc(N(C)C)cc3)[o+]c(-c3ccc(C)cc3)c2)cc1.F[B-](F)(F)F [6jc51-2]
CC50%/MIC (based on S. aureus): <.39

CCc1ccc(-c2cc(/C=C/c3ccc(N(C)C)cc3)[o+]c(-c3ccc(CC)cc3)c2)cc1.F[B-](F)(F)F [6jc64-1]
CC50%/MIC (based on S. aureus): 0.195

CCc1ccc(-c2cc(/C=C/c3cc4c5c(c3)CCCN5CCC4)[o+]c(-c3ccc(CC)cc3)c2)cc1.F[B-](F)(F)F [6jc-69-1]
CC50%/MIC (based on S. aureus): 0.39

Brc1ccc(-c2cc(/C=C/c3cc4c5c(c3)CCCN5CCC4)[o+]c(-c3ccc(Br)cc3)c2)cc1.F[B-](F)(F)F [6jc-69-5]
CC50%/MIC (based on S. aureus): 0.06

Cc1ccc(-c2cc(/C=C/c3cc4c5c(c3)CCCN5CCC4)[o+]c(-c3ccc(C)c(C)c3)c2)cc1C.F[B-](F)(F)F [6jc-69-3]
CC50%/MIC (based on S. aureus): 0.195

Cn1cc(/C=C/c2cc(-c3ccc(C(C)(C)C)cc3)cc(-c3ccc(C(C)(C)C)cc3)[o+]2)c2ccccc21.F[B-](F)(F)F [6jc66-3]
CC50%/MIC (based on S. aureus): 0.71

Cc1ccc(-c2cc(/C=C/c3cn(C)c4ccccc34)[o+]c(-c3ccc(C)cc3)c2)cc1.F[B-](F)(F)F [6jc65-2]
CC50%/MIC (based on S. aureus): 0.47

Cn1cc(/C=C/c2cc(-c3ccccc3)cc(-c3ccccc3)[o+]2)c2ccccc21.F[B-](F)(F)F [6jc66-1]
CC50%/MIC (based on S. aureus): 0.48

CN(C)c1ccc(/C=C/c2cc(-c3ccc(Br)cc3)cc(-c3ccc(Br)cc3)[o+]2)cc1 [6jc48-1]
CC50%/MIC (based on S. aureus): 3.125

— article PMC5077133, “Towards Development of Small Molecule Lipid II Inhibitors as Novel Antibiotics” (PLoS ONE, 2016)
